In US20220002279A1, “NOVEL IMIDAZOLE DERIVATIVE” (priority 2018, published 2022):
≈ marks a conversion by molar mass, not a printed value.

By UniProt entry, the sequences of proteins in these tests, tags left out.
UniProt P0A725, whole entry: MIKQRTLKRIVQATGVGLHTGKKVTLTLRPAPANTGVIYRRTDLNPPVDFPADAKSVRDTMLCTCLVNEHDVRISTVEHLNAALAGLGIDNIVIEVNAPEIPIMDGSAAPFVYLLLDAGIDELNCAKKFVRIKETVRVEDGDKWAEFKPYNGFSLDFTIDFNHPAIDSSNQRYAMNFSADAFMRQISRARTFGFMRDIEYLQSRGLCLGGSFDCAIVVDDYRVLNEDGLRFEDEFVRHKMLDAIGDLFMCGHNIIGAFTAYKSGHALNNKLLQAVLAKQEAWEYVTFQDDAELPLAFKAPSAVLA

Key:
[1] = molecular target: Escherichia coli LpxC enzyme (Escherichia coli, UniProt P0A725); experiment: Inhibitory activity on Escherichia coli LpxC enzyme (fluorescamine method); details: read-out: IC50 (inhibitory activity on Escherichia coli LpxC enzyme, Fluoresamine method); fluorescamine detection; 3.1 nmol/L enzyme, 20 μmol/L substrate, pH 6.5, 120 min
[2] = system: Escherichia coli strain ATCC25922; experiment: Antimicrobial activity, MIC by broth microdilution; details: cation-adjusted Mueller-Hinton broth, about 5×10^5 CFU/mL, 35° C., about 18 hours
Source text: (§1) Test Example 4 Evaluation of the Antimicrobial Activity
(§2) For minimum inhibitory concentration (MIC) measurement, the following broth microdilution method was applied as adapted from the standard procedure recommended by the CLSI (Clinical and Laboratory Standards Institute).
(§3) The bacteria used were Pseudomonas aeruginosa strain ATCC27853, Escherichia coli strain ATCC25922, and Klebsiella pneumoniae strain ATCC13883. After culture overnight on a heart infusion agar medium, the cells of a test bacterium were scraped off, and a bacterial solution suspended to have a turbidity of level 0.5 on the McFarland scale was diluted and used as an inoculum solution. The inoculum solution was inoculated in a cation-adjusted Mueller-Hinton broth medium containing a test compound so that the final inoculation concentration was about 5×10^5 CFU/mL, and cultured at 35° C. for about 18 hours. A minimum drug concentration at which no cell growth was visible to the naked eye was designated as MIC. […] In the table, ND represents the case where suppression of the cell growth in a drug concentration-dependent manner was not observed (Not Determined), and NT represents that no test was conducted (Not Tested).

[3] = system: Klebsiella pneumoniae strain ATCC13883; experiment: Antimicrobial activity, MIC by broth microdilution; details: cation-adjusted Mueller-Hinton broth, about 5×10^5 CFU/mL, 35° C., about 18 hours
Source text: as §1, §2, §3

[4] = system: Pseudomonas aeruginosa strain ATCC27853; experiment: Antimicrobial activity, MIC by broth microdilution; details: cation-adjusted Mueller-Hinton broth, about 5×10^5 CFU/mL, 35° C., about 18 hours
Source text: as §1, §2, §3

C[C@H](O)c1nccn1Cc1cc(-c2ccc(C#CC3(NC=O)CC3)cc2)on1
IC50 [1]: 685 nM
MIC Escherichia coli ATCC25922 [2]: 8 µg/mL (≈ 21.3 µM)
MIC Klebsiella pneumoniae ATCC13883 [3]: 16 µg/mL (≈ 42.5 µM)
MIC Pseudomonas aeruginosa ATCC27853 [4]: >128 µg/mL
